Measured values from several laboratories, pooled; numbers as filed in NIAID ChemDB.

Common to all: growth or infection tests; species: HIV-1; read by: p24; measure: EC90

An empty or dashed field is not shown.

compound	strain	changes	cell line	value
Nc1nc(=O)n([C@H]2C=C[C@@H](CO)O2)cc1F	XM-Q151M	RT-A62V V75I F77C F116Y Q151M	MT-4	32 µM
Nc1ccc(S(=O)(=O)N(CC2CCCC2)C[C@@H](O)[C@H](Cc2ccccc2)NC(=O)O[C@@H]2CCOC2)c(N)c1	IIIB	-	CEM	≤0.1 µM
CC(C)CN(C[C@@H](O)[C@H](Cc1ccccc1)NC(=O)[C@H](CC(N)=O)NC(=O)c1ccc2ccccc2n1)S(=O)(=O)c1cccc2nonc12	IIIB	-	CEM	<0.1 µM
Cc1cc(C)cc(S(=O)(=O)c2c(C(=O)NCCO)[nH]c3ccc(Cl)cc23)c1	EFV-resistant (RT K103R V179D P225H)	RT-K103R V179D P225H	C8166	0.1 µM
CCN(CC)c1ncnc2c1ncn2[C@H]1CC[C@@H](CO)O1	GB8	-	JM	>200 µM
Nc1nc(NC2CC2)c2ncn([C@H]3C=C[C@@H](CO)C3)c2n1	XM-Q151M	RT-A62V V75I F77C F116Y Q151M	MT-4	4.6 µM
Cc1cn([C@H]2C=C[C@@H](COC(=O)CCCCCCCCCCCBr)O2)c(=O)[nH]c1=O	-	-	MT-4	1.1 µM
COc1ccc(S(=O)(=O)N(CC2CCCC2)C(=O)C(=O)C(=O)[C@@H](Cc2ccccc2)NC(=O)OC2COCOC2)cc1	IIIB	-	CEM	1 µM
COc1c(Cl)ccc2c1[C@@](C#Cc1ccccc1)(C(F)(F)F)NC(=O)N2	-	RT-K103N	MT-4	0.113 µM
CC(C)CN(C[C@@H](O)[C@H](Cc1ccccc1)NC(=O)[C@H](CC(N)=O)NC(=O)c1ccc2ccccc2n1)S(=O)(=O)c1cc(S(=O)(=O)c2ccccc2)cs1	IIIB	-	CEM	<0.1 µM
COc1ccc(S(=O)(=O)N(CC(C)C)C[C@@H](O)CCN(CCC2CCCC2)C(=O)O[C@H]2CCOC2)cc1	IIIB	-	CEM	1 µM
O=C(N[C@@H](Cc1ccccc1)[C@H](O)CN(CC1CCCC1)S(=O)(=O)c1ccccc1)O[C@H]1CCOC1	IIIB	-	CEM	≤0.1 µM
NNC(=O)c1[nH]c2ccc(Cl)cc2c1S(=O)(=O)c1ccccc1	IIIB	-	C8166	0.02 µM
O=C(N[C@@H](Cc1ccccc1)C(=O)C(F)(F)CN(Cc1ccccc1)S(=O)(=O)c1ccccc1)OC1COCOC1	IIIB	-	CEM	1 µM
O=C(N[C@@H](Cc1ccccc1)[C@H](O)CN(CC1CCCC1)S(=O)(=O)c1ccc(F)cc1)O[C@@H]1CCOC1	IIIB	-	CEM	0.101–1 µM
COc1ccc(S(=O)(=O)N(CC(C)C)C[C@@H](O)CCN(CC2CCCC2)S(=O)(=O)Cc2nc[nH]c2C)cc1	IIIB	-	CEM	1 µM
CSc1cc(N)nc(S[C@@H](C)c2cc3c(C)coc3cn2)n1	IIIB	-	MT-4	0.004 µM
Cc1cc(C)cc(S(=O)(=O)c2c(C(=O)NCC(=O)NN)[nH]c3ccc(Cl)cc23)c1	IIIB	-	C8166	0.03 µM
O=C1Nc2ccc(Cl)cc2[C@@](/C=C/C2CC2)(C(F)(F)F)N1	-	RT-K103N	MT-4	0.027 µM
CC(C)CN(C[C@@H](O)[C@H](Cc1ccccc1)NC(=O)[C@H](CC(N)=O)NC(=O)c1ccc2ccccc2n1)S(=O)(=O)c1ccc(-c2ccccn2)s1	IIIB	-	CEM	≤0.1 µM
COc1ccc(S(=O)(=O)N(CC2CCCC2)C[C@@H](O)CN(CCc2ccccc2)C(=O)O[C@H]2CCOC2)cc1	IIIB	-	CEM	0.1 µM
Cc1cc(C)cc(S(=O)(=O)c2c(C(N)=O)[nH]c3ccc(Cl)cc23)c1	IIIB	-	C8166	0.006 µM
Cc1cn([C@H]2C=C[C@@H](CO)O2)c(=O)[nH]c1=O	-	-	MT-4	1.15 µM
O=C1Nc2ccc(Cl)c(O)c2[C@@](C#Cc2ccccc2)(C(F)(F)F)N1	-	RT-K103N	MT-4	0.03 µM
CC(C)CN(CCC(O)CNc1cscc1S(=O)(=O)c1ccccc1)S(=O)(=O)c1ccccc1	IIIB	-	CEM	1 µM
O=C1Nc2ccc(Cl)cc2[C@@](C#CC2CC2)(C(F)(F)F)N1	-	RT-K103N	MT-4	0.01 µM
COc1ccc(S(=O)(=O)N(CC2CCCC2)C[C@@H](O)[C@H](Cc2ccccc2)NC(=O)O[C@@H]2CCOC2)cc1	IIIB	-	CEM	≤0.1 µM
COc1ccc(/C=C/C(=O)O[C@@H]2[C@@H](OC(=O)/C=C/c3ccc(OC)cc3)[C@H](O[C@H]3[C@H](OC(=O)/C=C/c4ccc(OC)cc4)[C@@H](OC(=O)/C=C/c4ccc(OC)cc4)[C@H](O[C@H]4CC[C@@]5(C)C(CC[C@]6(C)C5C(=O)C=C5C7C[C@@](C)(C(=O)O)CC[C@]7(C)CC[C@]56C)C4(C)C)O[C@@H]3C(=O)O)O[C@H](C(=O)O)[C@H]2OC(=O)/C=C/c2ccc(OC)cc2)cc1	EVK	-	MT-4	>1000 µg/mL
CC(C)CN(C[C@@H](O)[C@H](Cc1ccccc1)NC(=O)[C@H](CC(N)=O)NC(=O)c1ccc2ccccc2n1)S(=O)(=O)c1ccc(F)cc1	IIIB	-	CEM	<0.1 µM
O=C(c1ccccc1)N(CCc1ccccc1)C[C@H](O)CN(CC1CCCC1)S(=O)(=O)CC1CCOC1	IIIB	-	CEM	1 µM
O=C(N[C@@H](Cc1ccccc1)[C@H](O)CN(CC1CCCC1)S(=O)(=O)c1ccc(O)cc1)O[C@@H]1CCOC1	IIIB	-	CEM	≤0.1 µM
CCSCCCCCCCCCCCC(=O)OC[C@@H]1C=C[C@H](n2cc(C)c(=O)[nH]c2=O)O1	-	-	MT-4	0.6 µM
COc1ccc(S(=O)(=O)N(CC(C)C)C[C@@H](O)CCN(CC2CCCC2)S(=O)(=O)CC2CS(=O)(=O)CC2O)cc1	IIIB	-	CEM	1 µM
CC(C)CN(C[C@@H](O)[C@H](Cc1ccccc1)NC(=O)[C@H](CC(N)=O)NC(=O)c1ccc2ccccc2n1)S(=O)(=O)c1cc(S(=O)(=O)c2ccccc2)cs1	IIIB	-	CEM	≤0.1 µM
O=C(O)c1cc(-n2cccc2)ccc1Cl	SF2 X4R5 CLADE B	-	MT-2	9.13 µM
Cc1cc(C)cc(S(=O)(=O)c2c(C(N)=O)[nH]c3c(Cl)cc(Cl)cc23)c1	IIIB	RT-K103R	C8166	>100 µM

Repeating the final 5 entries:

compound | strain | changes | cell line | value
CCSCCCCCCCCCCCC(=O)OC[C@@H]1C=C[C@H](n2cc(C)c(=O)[nH]c2=O)O1 | - | - | MT-4 | 0.6 µM
COc1ccc(S(=O)(=O)N(CC(C)C)C[C@@H](O)CCN(CC2CCCC2)S(=O)(=O)CC2CS(=O)(=O)CC2O)cc1 | IIIB | - | CEM | 1 µM
CC(C)CN(C[C@@H](O)[C@H](Cc1ccccc1)NC(=O)[C@H](CC(N)=O)NC(=O)c1ccc2ccccc2n1)S(=O)(=O)c1cc(S(=O)(=O)c2ccccc2)cs1 | IIIB | - | CEM | ≤0.1 µM
O=C(O)c1cc(-n2cccc2)ccc1Cl | SF2 X4R5 CLADE B | - | MT-2 | 9.13 µM
Cc1cc(C)cc(S(=O)(=O)c2c(C(N)=O)[nH]c3c(Cl)cc(Cl)cc23)c1 | IIIB | RT-K103R | C8166 | >100 µM

Lines come from different laboratories, so protocols vary. ECn is the concentration giving n% inhibition of infection, replication or growth. a–b is a range or a potency band.